Measured values from several laboratories, pooled; numbers as filed in NIAID ChemDB.

Shared fields: cytotoxicity tests; cell line: HepG2.2.15; read-out: CC50

Lines come from different laboratories, so protocols vary.

{"compound": "OCCc1c(N2CCOCC2)nc2ccc(Cl)cc2c1-c1ccccc1Cl", "result": ">1592 µM"}
{"compound": "C=C(C)[C@H](OC(=O)COC)[C@H](C[C@@H](C)C1=C2C[C@H](OC(=O)COC)[C@H]3[C@@]4(C)CCC(=O)C(C)(C)[C@@H]4CC[C@]3(C)[C@@]2(C)CC1)OC(=O)COC", "result": ">2800 µM"}
{"compound": "CC(=O)O[C@H]1C[C@@H]2C(=CC[C@@H]3[C@@]2(C)C(=O)C[C@]2(C)C([C@@](C)(O)C(=O)CCC(C)(C)OC(C)=O)[C@H](O)C[C@@]32C)C(C)(C)[C@@H]1OC(C)=O", "result": "546.2 µM"}
{"compound": "CC(=O)OC1=CC[C@@]2(C)[C@@H](CC[C@@]3(C)[C@H]2[C@@H](OC(C)=O)CC2=C([C@H](C)C[C@H](OC(C)=O)[C@@H](OC(C)=O)C(C)(C)OC(C)=O)CC[C@@]23C)C1(C)C", "result": ">2100 µM"}
{"compound": "CC1(C)[C@@H](O)CC[C@]2(C)[C@H]3CC=C4[C@@H]5C[C@@](C)(C(=O)OCC(N)=O)CC[C@]5(C)CC[C@@]4(C)[C@]3(C)CC[C@@H]12", "result": "472 µM"}
{"compound": "CC1(CO)O[C@H](n2cnc3c(N)ncnc32)[C@@H](O)[C@H]1O", "result": ">100 µM"}
{"compound": "C/C=C/C=C/C(=O)O[C@@H](C[C@@H](C)C1=C2C[C@H](OC(=O)/C=C/C=C/C)[C@H]3[C@@]4(C)CCC(=O)C(C)(C)[C@@H]4CC[C@]3(C)[C@@]2(C)CC1)[C@@H](OC(=O)/C=C/C=C/C)C(C)(C)O", "result": ">900 µM"}
{"compound": "Cc1cn([C@H]2O[C@@H](CO)[C@H](O)[C@H]2F)c(=O)[nH]c1=O", "result": "≥200 µM"}
{"compound": "N#CCCC1C(=O)c2ccc(-c3ccc(F)c(F)c3)cc2OC12CCCC2", "result": "3 µM"}
{"compound": "ClCCc1c(Cl)nc2ccc(Cl)cc2c1-c1ccccc1Cl", "result": ">1400 µM"}
{"compound": "CC(=O)SCCOP(=O)(OCCOCn1cnc2c(=O)[nH]c(N)nc21)OCCSC(C)=O", "result": "987 µM"}
{"compound": "C[C@]1(CO)O[C@@H](n2cc(F)c(N)nc2=O)[C@H](O)[C@@H]1O", "result": ">100 µM"}
{"compound": "CC1(C)[C@@H](O)CC[C@]2(C)[C@H]3C(=O)C=C4[C@@H]5C[C@@](C)(C(=O)OCc6ccc(S(C)(=O)=O)cc6)CC[C@]5(C)CC[C@@]4(C)[C@]3(C)CC[C@@H]12", "result": ">1030 µM"}
{"compound": "C[C@]1(CO)O[C@@H](n2cc(F)c(=O)[nH]c2=O)[C@H](O)[C@@H]1O", "result": ">100 µM"}
{"compound": "COC(=O)C1=C(CN2CCN(c3ncccn3)CC2)NC(c2ncc(F)cc2F)=N[C@H]1c1ccc(F)cc1Cl", "result": "10 µM"}
{"compound": "Cc1cc(NC(=O)c2c(C)noc2C)ccc1F", "result": ">100 µM"}
{"compound": "C[C@H](C[C@H](OC(=O)[C@@H]1CCC(=O)O1)[C@@H](OC(=O)[C@@H]1CCC(=O)O1)C(C)(C)OC(=O)[C@@H]1CCC(=O)O1)C1=C2C[C@H](OC(=O)[C@@H]3CCC(=O)O3)[C@H]3[C@@]4(C)CCC(=O)C(C)(C)[C@@H]4CC[C@]3(C)[C@@]2(C)CC1", "result": ">1600 µM"}
{"compound": "CCCCCCCCCCOC(=O)[C@@]1(C)CC[C@]2(C)CC[C@]3(C)C(=CC(=O)[C@@H]4[C@@]5(C)CC[C@H](O)C(C)(C)[C@@H]5CC[C@]43C)[C@@H]2C1", "result": ">1030 µM"}
{"compound": "CC(=O)O[C@H]1C[C@H]2[C@]3(C)C(=O)C[C@]4(C)C([C@@](C)(O)C(=O)CCC(C)(C)OC(C)=O)[C@H](OC(C)=O)C[C@@]4(C)[C@@H]3C[C@@H](O)[C@@]2(OC(=O)c2cccc(Cl)c2)C(C)(C)[C@@H]1OC(C)=O", "result": ">1050 µM"}
{"compound": "C=C(C)[C@H](OC(=O)CCCC)[C@H](C[C@@H](C)C1=C2C[C@H](OC(=O)CCCC)[C@H]3[C@@]4(C)CCC(=O)C(C)(C)[C@@H]4CC[C@]3(C)[C@@]2(C)CC1)OC(=O)CCCC", "result": ">920 µM"}
{"compound": "CCOCC(=O)O[C@H]1C[C@@H]2C(=CC[C@@H]3[C@@]2(C)C(=O)C[C@]2(C)C([C@@](C)(O)C(=O)CCC(C)(C)O)[C@H](OC(=O)COCC)C[C@@]32C)C(C)(C)[C@@H]1OC(=O)COCC", "result": "184.5 µM"}
{"compound": "OCCc1c(Nn2nnc3ccccc32)nc2ccc(Cl)cc2c1-c1ccccc1Cl", "result": "82.4 µM"}
{"compound": "CCCCC(=O)O[C@@H](C[C@@H](C)C1=C2C[C@H](OC(=O)CCCC)[C@H]3[C@@]4(C)CCC(=O)C(C)(C)[C@@H]4CC[C@]3(C)[C@@]2(C)CC1)[C@@H](OC(=O)CCCC)C(C)(C)O", "result": ">1300 µM"}
{"compound": "CCOCC1=C(C(=O)OCC)C(c2ccc(F)cc2Cl)N=C(c2ncc(F)cc2F)N1", "result": ">10 µM"}
{"compound": "CCCC(=O)O[C@H]1C[C@@H]2C(=CC[C@@H]3[C@@]2(C)C(=O)C[C@]2(C)C([C@@](C)(O)C(=O)CCC(C)(C)OC(C)=O)[C@H](O)C[C@@]32C)C(C)(C)[C@@H]1O", "result": "12.4 µM"}
{"compound": "CC1(C)[C@@H](O)CC[C@]2(C)[C@H]3CC=C4[C@@H]5C[C@@](C)(C(=O)OCc6ccc(Br)cc6F)CC[C@]5(C)CC[C@@]4(C)[C@]3(C)CC[C@@H]12", "result": "1150 µM"}
{"compound": "C[C@H](C[C@H](OC(=O)/C=C/c1ccccc1Cl)[C@@H](OC(=O)/C=C/c1ccccc1Cl)C(C)(C)OC(=O)/C=C/c1ccccc1Cl)C1=C2C[C@H](OC(=O)/C=C/c3ccccc3Cl)[C@H]3[C@@]4(C)CCC(=O)C(C)(C)[C@@H]4CC[C@]3(C)[C@@]2(C)CC1", "result": ">1400 µM"}
{"compound": "COc1cccc(/C=C/C(=O)O[C@H]2CC[C@]3(C)[C@H]4CC=C5[C@@H]6C[C@@](C)(C(=O)OCc7ccc(Br)cc7F)CC[C@]6(C)CC[C@@]5(C)[C@]4(C)CC[C@H]3C2(C)C)c1", "result": ">1000 µM"}
{"compound": "CCOCC1=C(C(=O)OC)C(c2ccc(F)cc2Cl)N=C(c2ncc(F)cc2F)N1", "result": ">100 µM"}
{"compound": "C[C@H](C[C@H](OC(=O)CN1C(=O)c2ccccc2C1=O)[C@@H](OC(=O)CN1C(=O)c2ccccc2C1=O)C(C)(C)O)C1=C2C[C@H](OC(=O)CN3C(=O)c4ccccc4C3=O)[C@H]3[C@@]4(C)CCC(=O)C(C)(C)[C@@H]4CC[C@]3(C)[C@@]2(C)CC1", "result": ">1500 µM"}
{"compound": "COC(=O)C1=C(CN2CCN(C(=O)OC(C)(C)C)CC2)NC(c2ncc(F)cc2F)=N[C@H]1c1ccc(F)cc1Cl", "result": "16 µM"}
{"compound": "CCOCC1=C(C(=O)OCC)C(c2ccc(F)cc2Br)N=C(c2ncccc2F)N1", "result": ">12 µM"}
{"compound": "CC(=O)OC(C)(C)[C@H](OC(=O)c1ccccc1)[C@H](C[C@@H](C)C1=C2C[C@H](OC(=O)c3ccccc3)[C@H]3[C@@]4(C)CCC(=O)C(C)(C)[C@@H]4CC[C@]3(C)[C@@]2(C)CC1)OC(=O)c1ccccc1", "result": ">1700 µM"}
{"compound": "C[C@H](C[C@H](OC(=O)CC(C)(C)C)[C@@H](OC(=O)CC(C)(C)C)C(C)(C)O)C1=C2C[C@H](OC(=O)CC(C)(C)C)[C@H]3[C@@]4(C)CCC(=O)C(C)(C)[C@@H]4CC[C@]3(C)[C@@]2(C)CC1", "result": ">1200 µM"}
{"compound": "C[C@H](C[C@H](OC(=O)c1ccccc1)[C@@H](OC(=O)c1ccccc1)C(C)(C)OC(=O)c1ccccc1)[C@]12CC[C@@]3(C)[C@@]1(C[C@H](OC(=O)c1ccccc1)[C@H]1[C@@]4(C)CCC(=O)C(C)(C)[C@@H]4CC[C@@]13C)O2", "result": ">1700 µM"}
{"compound": "COC(=O)C1=C(CN2CCN(C(=O)OC)CC2)NC(c2ncc(F)cc2F)=NC1c1ccc(Cl)cc1Cl", "result": "3.5 µM"}
{"compound": "CCOC(=O)CCCOC(=O)[C@@]1(C)CC[C@]2(C)CC[C@]3(C)C(=CC[C@@H]4[C@@]5(C)CC[C@H](OC(=O)/C=C/c6cc(OC)c(OC)c(OC)c6)C(C)(C)[C@@H]5CC[C@]43C)[C@@H]2C1", "result": ">1230 µM"}
{"compound": "CCCC(=O)O[C@@H]1[C@@H](O)C[C@@H]2C(=CC[C@@H]3[C@@]2(C)C(=O)C[C@]2(C)C([C@@](C)(O)C(=O)CCC(C)(C)OC(C)=O)[C@H](O)C[C@@]32C)C1(C)C", "result": "6.3 µM"}
{"compound": "COC(=O)C1=C(CN2CCN(C(=O)OC)CC2)NC(c2ncc(F)cc2F)=NC1c1ccc(F)cc1Br", "result": "4 µM"}
{"compound": "C[C@H](C[C@H](OC(=O)COc1ccccc1)[C@@H](OC(=O)COc1ccccc1)C(C)(C)O)C1=C2C[C@H](OC(=O)COc3ccccc3)[C@H]3[C@@]4(C)CCC(=O)C(C)(C)[C@@H]4CC[C@]3(C)[C@@]2(C)CC1", "result": ">1300 µM"}
{"compound": "CC(=O)OC(C)(C)CCC(=O)[C@](C)(O)C1[C@H](O)C[C@@]2(C)[C@@H]3C[C@@H](O)[C@]4(OC(=O)c5cccc(Cl)c5)[C@@H](C[C@H](O)[C@@H](O)C4(C)C)[C@]3(C)C(=O)C[C@]12C", "result": "366.5 µM"}
{"compound": "C[C@H](C[C@H](OC(=O)c1ccc(Cl)cc1Cl)[C@@H](OC(=O)c1ccc(Cl)cc1Cl)C(C)(C)OC(=O)c1ccc(Cl)cc1Cl)C1=C2C[C@H](OC(=O)c3ccc(Cl)cc3Cl)[C@H]3[C@@]4(C)CCC(=O)C(C)(C)[C@@H]4CC[C@]3(C)[C@@]2(C)CC1", "result": ">1000 µM"}
{"compound": "CCCC(=O)O[C@H]1C[C@H]2[C@]3(C)C(=O)C[C@]4(C)C([C@@](C)(O)C(=O)CCC(C)(C)OC(C)=O)[C@H](OC(=O)CCC)C[C@@]4(C)[C@@H]3C[C@H]3O[C@]32C(C)(C)[C@@H]1OC(=O)CCC", "result": ">617.6 µM"}
{"compound": "CC1(C)[C@@H](O)CC[C@]2(C)[C@H]3C(=O)C=C4[C@@H]5C[C@@](C)(C(=O)OC6CCC6)CC[C@]5(C)CC[C@@]4(C)[C@]3(C)CC[C@@H]12", "result": "742 µM"}
{"compound": "CC(C)CC(=O)O[C@@H](C[C@@H](C)C1=C2C[C@H](OC(=O)CC(C)C)[C@H]3[C@@]4(C)CCC(=O)C(C)(C)[C@@H]4CC[C@]3(C)[C@@]2(C)CC1)[C@@H](OC(=O)CC(C)C)C(C)(C)OC(=O)CC(C)C", "result": ">2000 µM"}

The last 3 rows once more:

CCCC(=O)O[C@H]1C[C@H]2[C@]3(C)C(=O)C[C@]4(C)C([C@@](C)(O)C(=O)CCC(C)(C)OC(C)=O)[C@H](OC(=O)CCC)C[C@@]4(C)[C@@H]3C[C@H]3O[C@]32C(C)(C)[C@@H]1OC(=O)CCC ; result: >617.6 µM
CC1(C)[C@@H](O)CC[C@]2(C)[C@H]3C(=O)C=C4[C@@H]5C[C@@](C)(C(=O)OC6CCC6)CC[C@]5(C)CC[C@@]4(C)[C@]3(C)CC[C@@H]12 ; result: 742 µM
CC(C)CC(=O)O[C@@H](C[C@@H](C)C1=C2C[C@H](OC(=O)CC(C)C)[C@H]3[C@@]4(C)CCC(=O)C(C)(C)[C@@H]4CC[C@]3(C)[C@@]2(C)CC1)[C@@H](OC(=O)CC(C)C)C(C)(C)OC(=O)CC(C)C ; result: >2000 µM

CCn: concentration that lowers growth or viability of the cells by n%.